From patent US9476087B2, “Methods and compounds for detecting beta-lactamase activity” (Nanyang Technological University, priority 2008, dated 2016)

Experiment: Interaction of free dithiol linkers with suspension of gold nanoparticles
Conditions: linkers 5 mm as printed

di-2-mercaptoethylamine-conjugated 1,2-bis(2-aminoethoxy)ethane
binding of free dithiol linker to gold nanoparticles: rapid, occurring within seconds

di-4-aminothiolphenol-conjugated 1,2-bis(2-aminoethoxy)ethane
binding of free dithiol linker to gold nanoparticles: rapid, occurring within seconds
